pEC50, pIC50: −log10 of the molar value.
Legend:
[1] = molecular target: human CMV DNA polymerase UL54 (Human cytomegalovirus (strain AD169) (HHV-5) (Human herpesvirus 5), UniProt P08546); assay: CMV polymerase biochemical assay (molecular beacon-based); details: read-out: CMV-polymerase Biochemical IC50
Method: (§1) Both human CMV DNA polymerase UL54 and human HSV DNA polymerase UL30 were produced as N-terminal MBP fusion of the full length, wild type recombinant proteins in order to enhance soluble expression in insect cell expression system. The proteins were expressed in sf9 insect cells via baculovirus transduction and cells were harvested after 48 hours. The soluble proteins were purified using the standard Ni-IMAC purification strategy via the N-terminal hexa-Histidine tag, followed by heparin affinity chromatography. Both of the final MBP fusion proteins were more than 90% pure and the yield of UL54 was up to 1.8 mg per liter culture while UL30 was up to 15 mg per liter culture. All purification steps were performed on ice, with buffers chilled on ice and FPLC fraction collectors set at 6° C. The final UL54 protein was concentrated and stored in buffer containing 35 mM Tris pH7.5, 375 mM NaCl, 42.5% Glycerol, and 1 mM TCEP at −20° C. UL30 protein was stored in buffer containing 20 mM HEPES, pH7.0, 420 mM NaCl, 20% glycerol, 6 mM Imidazole, and 0.8 mM DTT at−80° C.
(§2) DNA polymerase activity was measured using a molecular beacon-based assay, as described in Ma et. al.
(§3) 100 pM CMV polymerase or 625 pM HSV polymerase was added to a buffer containing 20 mM Tris, pH=7.5, 100 mM NaCl, 10 mM MgCl2, 0.01% Tween-20, 0.5 mM EDTA, 10% Sucrose and 1 mM DTT. The inhibitor was pre-incubated with the polymerase for 30 minutes at room temperature. Reactions were initiated by the addition of a mixture containing 1.25 uM dATP, 1.25 uM dCTP, 1.25 uM dTTP, 1.25 uM dGTP, 200 nM Primer B (5′-GAC GGG AAG-3′5′-GAC GGG AAG-3′) and 100 nM molecular beacon (5′-5,6-FAM-CCTCTCCGTGTCTTGTACTTCCCGTCAGAGAGG-BHQ1-3′). For human CMV polymerase the reactions were incubated for 60 minutes at room temperature. For HSV polymerase the reactions were incubated for 20 minutes at room temperature. The reactions were then read on a Perkin-Elmer EnVision 2101 reader (fluorescence) using an excitation of 480 nm and emission of 535 nm. 1050s were determined using an internal Novartis software (Helios).
as §3, with “For human CMV polymerase the reactions were incubated for 60 minutes at room temperature. For HSV polymerase the reactions were incubated for 20 minutes at room temperature.” left out, “nm.” for “nm. 1050s were determined using an internal Novartis software (Helios).”

Amino acid sequences for entries named in this document (tags omitted).
UniProt P08546, whole entry: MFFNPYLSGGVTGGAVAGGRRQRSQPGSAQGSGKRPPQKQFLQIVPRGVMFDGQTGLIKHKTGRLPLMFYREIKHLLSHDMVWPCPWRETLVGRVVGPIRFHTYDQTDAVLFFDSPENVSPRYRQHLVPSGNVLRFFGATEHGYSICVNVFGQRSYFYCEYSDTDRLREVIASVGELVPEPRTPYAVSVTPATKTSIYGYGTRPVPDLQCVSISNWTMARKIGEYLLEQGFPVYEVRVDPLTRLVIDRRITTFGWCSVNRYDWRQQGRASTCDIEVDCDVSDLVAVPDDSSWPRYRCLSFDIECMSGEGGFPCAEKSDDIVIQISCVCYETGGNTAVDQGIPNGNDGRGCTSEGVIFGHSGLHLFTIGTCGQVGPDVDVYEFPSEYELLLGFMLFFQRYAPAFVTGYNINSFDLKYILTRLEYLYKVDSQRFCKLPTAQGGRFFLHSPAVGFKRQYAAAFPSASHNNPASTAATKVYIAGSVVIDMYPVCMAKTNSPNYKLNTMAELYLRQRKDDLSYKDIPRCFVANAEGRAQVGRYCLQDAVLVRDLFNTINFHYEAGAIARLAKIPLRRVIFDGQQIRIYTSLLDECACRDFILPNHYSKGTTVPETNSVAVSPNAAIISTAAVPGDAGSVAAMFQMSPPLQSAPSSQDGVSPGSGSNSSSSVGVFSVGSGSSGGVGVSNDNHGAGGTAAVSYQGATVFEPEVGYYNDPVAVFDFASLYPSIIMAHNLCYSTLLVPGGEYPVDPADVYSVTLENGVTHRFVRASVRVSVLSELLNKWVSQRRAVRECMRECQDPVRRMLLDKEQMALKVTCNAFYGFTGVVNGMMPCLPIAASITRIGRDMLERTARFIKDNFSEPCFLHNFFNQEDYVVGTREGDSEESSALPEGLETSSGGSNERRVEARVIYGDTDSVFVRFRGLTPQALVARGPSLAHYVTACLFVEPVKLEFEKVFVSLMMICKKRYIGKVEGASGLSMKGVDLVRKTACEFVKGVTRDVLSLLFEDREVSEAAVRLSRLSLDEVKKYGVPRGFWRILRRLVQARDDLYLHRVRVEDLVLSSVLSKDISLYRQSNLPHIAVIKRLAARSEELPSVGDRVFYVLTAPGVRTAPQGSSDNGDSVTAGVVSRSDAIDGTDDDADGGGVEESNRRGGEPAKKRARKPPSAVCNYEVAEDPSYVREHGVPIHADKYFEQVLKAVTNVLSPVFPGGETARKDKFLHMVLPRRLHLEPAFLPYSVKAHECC
UniProt P04293, whole entry: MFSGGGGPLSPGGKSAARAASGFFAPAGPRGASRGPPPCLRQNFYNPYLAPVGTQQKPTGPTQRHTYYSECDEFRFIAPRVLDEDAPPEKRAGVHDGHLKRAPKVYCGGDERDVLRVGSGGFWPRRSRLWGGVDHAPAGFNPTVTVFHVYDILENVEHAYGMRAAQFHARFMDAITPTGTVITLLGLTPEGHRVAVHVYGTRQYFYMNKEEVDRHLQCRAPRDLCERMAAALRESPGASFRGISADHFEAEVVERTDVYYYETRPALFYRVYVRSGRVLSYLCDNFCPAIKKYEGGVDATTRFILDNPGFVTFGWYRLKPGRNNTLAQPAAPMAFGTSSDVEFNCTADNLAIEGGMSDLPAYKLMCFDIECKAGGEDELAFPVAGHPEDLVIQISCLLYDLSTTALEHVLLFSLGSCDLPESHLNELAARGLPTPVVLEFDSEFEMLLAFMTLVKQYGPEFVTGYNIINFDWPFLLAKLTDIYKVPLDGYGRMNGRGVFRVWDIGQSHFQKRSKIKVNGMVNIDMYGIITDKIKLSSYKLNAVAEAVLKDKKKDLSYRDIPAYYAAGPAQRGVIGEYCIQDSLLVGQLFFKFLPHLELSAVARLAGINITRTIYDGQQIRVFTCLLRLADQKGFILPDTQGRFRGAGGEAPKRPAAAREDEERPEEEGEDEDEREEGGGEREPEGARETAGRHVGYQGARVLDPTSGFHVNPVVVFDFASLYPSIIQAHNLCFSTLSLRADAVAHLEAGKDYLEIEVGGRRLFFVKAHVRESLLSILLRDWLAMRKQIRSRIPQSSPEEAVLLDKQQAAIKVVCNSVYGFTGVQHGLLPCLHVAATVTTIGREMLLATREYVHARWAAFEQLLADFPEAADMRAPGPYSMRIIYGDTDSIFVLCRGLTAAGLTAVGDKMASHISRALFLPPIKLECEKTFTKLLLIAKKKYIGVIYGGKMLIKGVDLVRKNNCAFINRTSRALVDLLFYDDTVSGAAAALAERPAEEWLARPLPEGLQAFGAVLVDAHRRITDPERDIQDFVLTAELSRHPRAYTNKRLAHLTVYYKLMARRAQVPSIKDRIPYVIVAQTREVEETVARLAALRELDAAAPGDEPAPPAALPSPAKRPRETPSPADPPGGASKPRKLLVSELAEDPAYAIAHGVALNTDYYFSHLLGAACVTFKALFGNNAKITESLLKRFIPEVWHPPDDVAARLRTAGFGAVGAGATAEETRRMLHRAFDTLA

[2] = molecular target: human HSV DNA polymerase UL30 (Human herpesvirus 1 (strain 17) (HHV-1) (Human herpes simplex virus 1), UniProt P04293); assay: HSV polymerase biochemical assay (molecular beacon-based); details: read-out: HSV-polymerase Biochemical IC50
Method: as §1, §2, §3
as §3, with “For human CMV polymerase the reactions were incubated for 60 minutes at room temperature. For HSV polymerase the reactions were incubated for 20 minutes at room temperature.” left out, “nm.” for “nm. 1050s were determined using an internal Novartis software (Helios).”

[3] = test system: Luciferase-encoding HCMV, AD169 strain; assay: CMV Luciferase assay (cellular herpesvirus replication); assay type: cell-based; details: read-out: CMV-Luc Cellular EC50
Method: For all viral assays, 10 mM DMSO stock compound solutions were serially diluted in DMSO at 3.16 fold dilutions in 96-well clear round bottom plates. Compounds were then diluted in assay media at 1:20 and subsequently 10 μL of these dilutions were added to cells for final compound concentrations ranging either from 0.0159 μM to 50 μM in 0.5% DMSO/assay media, or from 0.00318 to 10 μM in 0.5% DMSO/assay media.
The assay uses a Luciferase-encoding HCMV. Luciferase is expressed under the control of a late viral gene (pp28) promoter in the AD169 strain, so that expression of the reporter is dependent on viral DNA replication. Compounds that affect any stage from viral entry to DNA replication result in a change in luciferase levels.
Viral replication in the presence or absence of compounds was measured by luciferase activity according to the following procedure: Neo-natal normal human dermal fibroblast cells (NN-NHDF, from ATCC cat #201-010) were seeded at 9,000 cells/well in 96-well white solid bottom plate at 80 uL/well in assay media: 2% FBS, 4 mM GlutaMax® (Invitrogen cat #35050) in DMEM/high glucose/no glutamine/no phenol red media (Invitrogen cat #31053). After 2 hrs at 37° C., 10 uL of compound diluted in assay media or 5% DMSO (final 0.5% DMSO/well) was added and the plates returned to 37° C. One hour later, 10 uL of virus diluted in assay media was added at a final Multiplicity of infection (MOI) of 1. Plates were incubated at 37° C. for 72 hrs. At 72 hours post-infection (hpi), plates were equilibrated to room temperature. After 25 min, 100 uL Renilla-Glo® Luciferase Assay Reagent (Promega cat # E2750) was added to each well and incubated for 10 min. Plates were covered to protect from light. Luminescence was measured on the PHERAstar FS®.
The following controls were included in the data analysis: No virus, no compound (0.5% DMSO)=IC (maximal inhibitory control); Virus, no compound (0.5% DMSO)=NC (neutral control). Data were analyzed using an internal Novartis software (Helios). The means of the controls (NC, IC) were used to normalize the results to a % scale using the formula: % Control=100−(100*(Sample value−NC)/(IC−NC)).
For each compound, the software derived an EC50 using a 4-parameter logistical model.

| SMILES | pIC50 [1] | pIC50 [2] | pEC50 [3] |
| --- | --- | --- | --- |
| N#Cc1ccc(CNC(=O)c2ccc3n(c2=O)CCN(CC2(S(N)(=O)=O)CC2)C3=O)cc1 | 8.48 | 6.95 | 6.24 |
| N#CCC1(CS(=O)(=O)C2(CN3CCn4c(ccc(C(=O)NCc5ccc(C#N)c(F)c5)c4=O)C3=O)CC2)CC1 | 8.02 | 6.86 | 6.41 |
| O=C(NCc1ccc(Cl)nc1)c1ccc2n(c1=O)CCN(CC1(S(=O)(=O)C3CC3)CC1)C2=O | 8.29 | 6.80 | 6.65 |
| N#CCC1(CS(=O)(=O)C2(CN3CCn4c(ccc(C(=O)NCc5ccc(C#N)cc5)c4=O)C3=O)CC2)CC1 | 7.77 | 6.74 | 6.13 |

Source: patent publication US12466821B2 (Novartis AG, priority 2018, dated 2025)
